Test system: 791 mAb
Assay: Efficiency of conjugation with RTA (percent substitution by SDS-PAGE and densitometry)
Settings: 4.0- or 6.3-fold molar excess of RTA

Row | Compound | % Subst. (RTA/mAb ratio of product divided by TNB/mAb ratio of modified antibody) [%]
1 | CC1CCC(=N)S1.Cl (centres unmarked) [methyl-2IT, 5-Methyl-2-iminothiolane hydrochloride] | 82
2 | Cl.N=C1CCC(c2ccccc2)S1 (centres unmarked) [phenyl-2IT, 5-Phenyl-2-iminothiolane hydrochloride] | 47

Source: patent publication US5093475A (priority 1989, dated 1992)
